The text below walks through data of patent publication US20240181022A1, “AMURINS LYSINS, AND LYSIN-ANTIMICROBIAL PEPTIDE (AMP) CONSTRUCTS ACTIVE AGAINST GRAM-NEGATIVE BACTERIA” (priority 2021, published 2024).

The assay deals with P. aeruginosa strain ATCC 27853. The assay is classed as cell-based, Pseudomonas aeruginosa.

B1: GN370: lysin-AMP construct, SEQ ID NO: 149: MIDR, FIRL and NPTH moieties N-terminal to GN202 lysin (protein)
chain: MIDRFIRLNPTHGPRRPRRPGRRAPVRTSQRGIDLIKSFEGLRLSAYQDSVGVWTIGYGTTRGVTRYMTITVEQAERMLSNDIQRFEPELDRLAKVPLNQNQWDALMSFVYNLGAANLASSTLLDLLNKGDYQGAADQFPHWVNAGGKRLDGLVKRRAAERALFLEPLS
modifications: GN370 lysin
As for B1, the “MIC change over 28-day serial passage” value (DCAAT media) is reported as “did not result in any increase in MIC”. Besides, the “MIC increase after 28 days, agent alone” value (in the absence of GN370 (GN370: alone)) is reported as “No MIC increases”.
